Test results from EP4670733A1, “METHODS FOR PREPARING VIRAL PROTEINS AND USES THEREOF” (priority 2024, dated 2025).

Tested on: B/Phuket/3073/2013 virus strain
Assay: Morphological characterization by TEM
Set-up: species or system influenza virus

Substance | Morphological characterization (TEM)
Triton X-100 [reference compound] | Splitting observed
C11-15-secondary alcohol ethoxylates | Splitting observed
